Measurements taken from patent publication US20110059555, “BRANCHED AND MULTI-CHAIN NUCLEIC ACID SWITCHES FOR SENSING AND SCREENING” (Syracuse University, published 2011).
Read-outs that look alike come from different tables or passages of the source.

Biological target: NCp7 (nucleocapsid protein, Zn2.NCp7(1-55)) (HIV-1) (UniProt P35962)
Conditions: Trp37 fluorescence quenching, 0.2 M NaCl

In the case of SL1i, the Kd is reported as 140 nM.

Substance SL2 has a Kd (p120 gives 25 nM) of 23 nM.

Work on SL3 (20mer) yielded a Kd (1:1) of 28 nM.

For SL3-GAUA, the Kd (quenching almost nil) was 16000 nM.

Work on SL3-UUCG yielded a Kd (quenching almost nil) of 7500 nM.

SL3-all-DNA showed a Kd of 230 nM.

For SL4, the Kd was 320 nM.
